PubChem BioAssay AID504761 – Drosophila RNAi Screening Center, 2011

Purpose: 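Fly genes whose silencing reduces dengue virus type 2 infection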 (primary screen)
Cell system: D.Mel-2 cells from Drosophila
Reagent: long dsRNA against Drosophila genes
Challenge: infection with dengue virus type 2; dose and infection time not stated
Detection: 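Per well on two replicate plates, imaging gave the percent of cells positive for viral envelope protein, ranked by infection, and a nuclear count of cells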
Scale: infection score: higher = more virus-infected cells; cell count: higher = more cells in the well
Hit rule: 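Very low infection ranking in both replicate wells (chance probability at most 0.065), then a retest showing infection dropped 1.5-fold or more at p below 0.05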
Meaning of the calls: active = confirmed: knock-down lowers infection; inactive = not picked or not confirmed
The screen tested about 22,000 reagents; shown is a random part of those that have a named target and a result. In the full data, 116 (0.52%) are marked active. 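Calls depend on retest data that are not deposited; infection was ranked per plate without normalising between plates; the unit of the infection score is not given.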 Raw values vary from plate to plate and are shown uncorrected. A plus sign joins genes that one reagent is predicted to hit. Not stated in the record: the amount of reagent, the time to read-out.

| predicted target | amplicon | infection score, replicate 1 | infection score, replicate 2 | cell count, replicate 1 | cell count, replicate 2 | Outcome |
| --- | --- | --- | --- | --- | --- | --- |
| CG17266 | DRSC04979 | 18 | 3.16 | 6017 | 6902 | inactive |
| CG17266 | DRSC22368 | 1.4 | 11.9 | 6003 | 6189 | inactive |
| CG17266 | DRSC24207 | 4.57 | 2.47 | 5691 | 5590 | inactive |
| CG34330 | DRSC20043 | 4.19 | 2.34 | 5089 | 6276 | inactive |
| CG34330 | DRSC29637 | 15.9 | 24.8 | 5504 | 5359 | inactive |
| CG15506 | DRSC15047 | – | – | 290 | 268 | inactive |
| GluClalpha | DRSC16680 | 4.05 | 4.38 | 2373 | 6489 | inactive |
| Cox10 | DRSC02804 | 8.24 | 1.72 | 5791 | 6463 | inactive |
| CG6333 | DRSC10626 | 8.01 | 9.84 | 5842 | 5792 | inactive |
| asRNA:Eig63F-2 + Eip63F-1 | DRSC21446 | 1.05 | 5.82 | 6194 | 6412 | inactive |
| PRL-1 | DRSC03393 | 8.38 | 8.3 | 6002 | 6328 | inactive |
| PRL-1 | DRSC27332 | 7.59 | 15.2 | 5932 | 6590 | inactive |
| CG2712 | DRSC18589 | 14.9 | 4.69 | 1113 | 6225 | inactive |
| CG15599 | DRSC19668 | 6.94 | 12.5 | 2391 | 5305 | inactive |
| Patj | DRSC08712 | 5 | 12.6 | 6418 | 5767 | inactive |
| Patj | DRSC28714 | 25.5 | 16.3 | 4993 | 5560 | inactive |
| CG34232 | DRSC36562 | 0.52 | 16.8 | 6325 | 5790 | inactive |
| Zw | DRSC20303 | 6.45 | 2.03 | 6074 | 6312 | inactive |
| Zw | DRSC27667 | 8.08 | 4.75 | 5782 | 6361 | inactive |
| CG14034 | DRSC02359 | 3.03 | 5.97 | 6311 | 6748 | inactive |
| CG43894 | DRSC10123 | 2.42 | 0.88 | 6274 | 6216 | inactive |
| CG43894 | DRSC25029 | 5.07 | 16.7 | 5898 | 6149 | inactive |
| Ptp69D | DRSC11258 | 0.57 | 6.97 | 5465 | 5492 | inactive |
| CG42304 + Snup | DRSC08276 | 8.28 | 28.6 | 6729 | 5971 | inactive |
| CG42304 + Snup | DRSC08277 | 6.88 | 18.6 | 6265 | 1796 | inactive |
| CG42304 + Snup | DRSC22781 | 0.92 | 2.12 | 6226 | 6477 | inactive |
| CG42304 + Snup | DRSC23772 | 3.21 | 4.22 | 7072 | 6844 | inactive |
| ct | DRSC18757 | – | 11.6 | 419 | 3166 | inactive |
| ct | DRSC25100 | 4.23 | 3.88 | 6097 | 6257 | inactive |

The list goes on; the last 6 above are carried over.
| predicted target | amplicon | infection score, replicate 1 | infection score, replicate 2 | cell count, replicate 1 | cell count, replicate 2 | Outcome |
| --- | --- | --- | --- | --- | --- | --- |
| CG42304 + Snup | DRSC08276 | 8.28 | 28.6 | 6729 | 5971 | inactive |
| CG42304 + Snup | DRSC08277 | 6.88 | 18.6 | 6265 | 1796 | inactive |
| CG42304 + Snup | DRSC22781 | 0.92 | 2.12 | 6226 | 6477 | inactive |
| CG42304 + Snup | DRSC23772 | 3.21 | 4.22 | 7072 | 6844 | inactive |
| ct | DRSC18757 | – | 11.6 | 419 | 3166 | inactive |
| ct | DRSC25100 | 4.23 | 3.88 | 6097 | 6257 | inactive |
| Obp19c | DRSC20528 | 7.65 | 1.12 | 3714 | 6143 | inactive |
| CG14301 | DRSC14780 | 26.4 | 6.55 | 5525 | 6294 | inactive |
| CG8180 | DRSC07092 | 13.7 | 16.5 | 1762 | 6054 | inactive |
| CG8180 | DRSC07093 | 9.5 | 13 | 6761 | 6603 | inactive |
| CG13679 | DRSC10037 | 23.7 | 7.57 | 5014 | 872 | inactive |
| CG13679 | DRSC22749 | 27.2 | 25.4 | 6504 | 6687 | inactive |
| CG43867 | DRSC17836 | 5.23 | 2.3 | 1338 | 6918 | inactive |
| CG43867 | DRSC17837 | – | 13.8 | 443 | 6213 | inactive |
| CG43867 | DRSC17943 | 8.12 | 10.6 | 3339 | 5322 | inactive |
| CG43867 | DRSC28000 | 18.8 | 4.46 | 6261 | 6462 | inactive |
| Gyc89Da | DRSC15008 | 4.44 | 8.45 | 6469 | 5517 | inactive |
| CG5327 | DRSC06930 | 3.19 | 2.52 | 5984 | 5724 | inactive |
| Hgsnat | DRSC18405 | 14.8 | 1.92 | 3318 | 6161 | inactive |
| Hgsnat | DRSC24716 | 3.94 | 4.35 | 6622 | 6421 | inactive |
| SmydA-8 | DRSC22064 | 3.09 | 9.7 | 6566 | 6248 | inactive |
| SmydA-8 | DRSC22263 | 1.81 | 0.77 | 6185 | 6724 | inactive |
| igl | DRSC07631 | 12.3 | 4.55 | 5871 | 6632 | inactive |
| igl | DRSC28961 | 7.24 | – | 1354 | 332 | inactive |
| CG9839 | DRSC16574 | 9.25 | 8.03 | 6055 | 6603 | inactive |
| CG3500 | DRSC04379 | 2.67 | 6.58 | 6554 | 6698 | inactive |
| CG3500 | DRSC26614 | 1.88 | 8.31 | 6437 | 5719 | inactive |
| CG4928 | DRSC19342 | 6.17 | 1.93 | 6673 | 6216 | inactive |
| CG4928 | DRSC29007 | – | 25.6 | 368 | 5268 | inactive |
| CG12360 (retired record) | DRSC14505 | 2.42 | 8.76 | 5535 | 6574 | inactive |
| Dora | DRSC19614 | 1.07 | 3.91 | 5816 | 4726 | inactive |
| Dora | DRSC19781 | 5.17 | 1.79 | 5740 | 5975 | inactive |
| Dora | DRSC20034 | 2.59 | 0.23 | 4525 | 6201 | inactive |
| Dora | DRSC20035 | 7.24 | 2.22 | 2874 | 5800 | inactive |
| Dora | DRSC27055 | 11.4 | 2.08 | 6758 | 6884 | inactive |
| Dora | DRSC28428 | 15.3 | 3.81 | 4582 | 1917 | inactive |
